We go through 1 substance from article PMC4422518, “Effects of 39 Compounds on Calmodulin-Regulated Adenylyl Cyclases AC1 and Bacillus anthracis Edema Factor” (2015).

This assay deals with Bacillus anthracis edema factor (EF) (Bacillus anthracis) (UniProt P40136).

As for “calmodulin (CaM-wt) (from UniProt P62149 1-149) (natural protein)”, the inhibition of CaM-stimulated AC activity of EF (0.1 uM CaM) by 10 uM penfluridol amounted to 45 % inhibition.
